Several values for one entry are separate records, joined by “and”; a condition that tells them apart may be missing. Equal values may be shown once. Read-outs that look alike come from different tables or passages of the source.
Assays:
Assay type in all cases: cell-based
[1] = test system: human norovirus genogroup I NoV (Norwalk virus replicon) in HG23 cells; assay: Human norovirus antiviral assay, qRT PCR in HG23 NoV replicon cells
MERS-CoV (EMC strain) = test system: MERS-CoV (EMC strain)
[2] = test system: measles virus (CC strain)
[3] = test system: tacaribe virus (TRVL11573 strain)
[4] = test system: influenza A (H1N1) virus (California/07/2009 strain); parameters: SI50 Influenza A (H1N1): unit not given beside the values
[5] = test system: dengue virus 2 (New Guinea C strain); conditions: ratio CC50 / EC50
[6] = test system: enterovirus-71 (Tainan/4643/98 strain); parameters: unit not given beside the values
[7] = test system: yellow fever virus (YFV 17D strain)
[8] = test system: enterovirus-71 (Tainan/4643/98 strain); assay: Secondary assay (virus yield reduction / neutral red CPE) against enterovirus-71 in Vero 76 cells
[9] = test system: tacaribe virus (TRVL11573 strain); parameters: unit not given beside the values

Row | SMILES | SI50 (CC50/EC50) human norovirus [1] | MERS-CoV SI50 (CC50/EC50) (MERS-CoV (EMC strain)) | Measles SI50 (CC50/EC50) [2] | Tacaribe virus SI50 (CC50/EC50) [3] | SI50 (CC50/EC50) influenza A (H1N1) [4] | SI50 dengue virus 2 [5] | SI50 enterovirus-71 [6] | Yellow fever virus SI50 (CC50/EC50) [7] | SI50 enterovirus-71 [8] | SI50 Influenza A (H1N1) [4] | SI50 tacaribe virus [9]
1 | C[C@@]1(O)[C@H](O)[C@@H](CO)O[C@H]1n1ccc(N)nc1=O [2′C Methyl Cytidine, 2′-C-Methylcytidine, reference compound] | >16 | – | – | – | – | – | – | – | – | – | –
2 | OC[C@H]1O[C@@H](n2ccc3c(C#Cc4ccc(Cl)cc4)ncnc32)[C@H](O)[C@@H]1O [3.1j, 6-((4-Chlorophenyl)ethynyl)-9-β-D-ribofuranosyl-7-deazapurine] | 1,748 | 0 | 3.8 and 3.3 | 0 | 0 | 11 and 13 | 0 | – | – | – | –
3 | OC[C@H]1O[C@@H](n2ccc3c(C#Cc4ccc(F)cc4)ncnc32)[C@H](O)[C@@H]1O [3.1h, 6-((4-Fluorophenyl)ethynyl)-9-β-D-ribofuranosyl-7-deazapurine] | > 38,470 | 0 | 4.5 and 4.4 | 0 | 0 | 0 | 0 | 15 and 13 | – | – | –
4 | C=C(OCC)c1ncnc2c1ccn2[C@@H]1O[C@H](CO)[C@@H](O)[C@H]1O [3.1b, 6-(1-Ethoxyvinyl)-9-β-D-ribofuranosyl-7-deazapurine] | – | – | – | 2.3 and 2.5 | 0 | 6 and 3 | – | 0 | – | – | –
5 | CC(C)C#Cc1ncnc2c1ccn2[C@@H]1O[C@H](CO)[C@@H](O)[C@H]1O [3.1e, 6-(3-Methylbut-1-yn-1-yl)-9-β-D-ribofuranosyl-7-deazapurine] | 100 | >9.1 and >7.1 | 11 and 22 | 7.7 and 7.3 | – | 7 and 12 | >24 and >23 | 3 | 24 | – | –
6 | CCc1ncnc2c1c(F)cn2[C@@H]1O[C@H](CO)[C@@H](O)[C@H]1O [3.1r, 6-Ethyl-7-Fluoro-9-β-D-ribofuranosyl-7-deazapurine] | – | 33 and 18 | 4.2 and 4.4 | – | 100 and 130 | – | 0 | 0 | – | >130 | –
7 | CCOC(=O)c1ccc(OCCC2CCN(c3ccc(C)nn3)CC2)cc1 [Pirodavir, pirodavir, reference compound] | – | – | – | – | – | – | >67 and >100 | – | >77 | – | –
8 | CC#Cc1ncnc2c1ccn2[C@@H]1O[C@H](CO)[C@@H](O)[C@H]1O [3.1d, 6-(Prop-1-yn-1-yl)-9-β-D-ribofuranosyl-7-deazapurine] | 3,145 | – | 0 | 1.6 and 1.9 | 1.9 and 1.7 | 11 and 10 | 0 | – | – | – | –
9 | OC[C@H]1O[C@@H](n2ccc3c(C4CC4)ncnc32)[C@H](O)[C@@H]1O [3.1a, 6-Cyclopropyl-9-β-D-ribofuranosyl-7-deazapurine, reference compound] | > 40 | 0 | >1.6 and >1.8 | 0 | 0 | >3 and >2 | 0 | 0 | – | – | –
10 | CCc1ncnc2c1c(C#CC1CC1)cn2[C@@H]1O[C@H](CO)[C@@H](O)[C@H]1O [3.1n, 6-Ethyl-7-cyclopropylethynyl-9-β-D-ribofuranosyl-7-deazapurine] | 6 | >10 and >18 | >1.6 and >3 | 0 | 0 | – | 0 | 0 | – | – | –
11 | CCc1ncnc2c1c(Br)cn2[C@@H]1O[C@H](CO)[C@@H](O)[C@H]1O [3.1q, 6-Ethyl-7-bromo-9-β-D-ribofuranosyl-7-deazapurine] | – | 0 | 0 | 0 | 0 | 0 | 0 | 0 | – | – | –
12 | Nc1ccn([C@@H]2O[C@H](CO)[C@@H](O)[C@H]2F)c(=O)n1 [2′-Fluoro-2′-deoxycytidine, 2′-fluoro-2′-deoxycytidine, reference compound] | – | – | >100 and >110 | – | – | – | – | – | – | – | –
13 | OC[C@H]1O[C@@H](n2ccc3c(C#CC4CCCC4)ncnc32)[C@H](O)[C@@H]1O [3.1g, 6-(Cydopentylethynyl)-9-β-D-ribofuranosyl-7-deazapurine] | 59 | 13 and 17 | 9.7 and 11 | 65 and 110 | 0 | – | 36 and >63 | – | 10 | – | –
14 | OC[C@H]1O[C@@H](n2ccc3c(C#CC4CC4)ncnc32)[C@H](O)[C@@H]1O [3.1c, 6-Cydopropylethynyl-9-β-D-ribofuranosyl-7-deazapurine] | 139 | >10 and >15 | > 100 | > 230 and 150 | >9.1 and >12 | – | 0 | 33 and 37 | – | – | 86
15 | CCc1ncnc2c1c(Cl)cn2[C@@H]1O[C@H](CO)[C@@H](O)[C@H]1O [3.1p, 6-Ethyl-7-chloro-9-β-D-ribofuranosyl-7-deazapurine] | – | 0 | 0 | 0 | 0 | – | 0 | 0 | – | – | –
16 | C#Cc1cn([C@@H]2O[C@H](CO)[C@@H](O)[C@H]2O)c2ncnc(CC)c12 [3.1l, 6-Ethyl-7-ethynyl-9-β-D-ribofuranosyl-7-deazapurine] | 1 | – | – | 0 | > 290 and >190 | 0 | 0 | 0 | – | – | –
17 | CCCC#Cc1ncnc2c1ccn2[C@@H]1O[C@H](CO)[C@@H](O)[C@H]1O [3.1f, 6-(Pent-1-yn-1-yl)-9-β-D-ribofuranosyl-7-deazapurine] | – | – | 20 and 16 | 6.3 and 5.5 | 4.1 and 2.2 | 16 and 11 | > 45 and >63 | – | 3 | – | –
18 | CCc1ncnc2c1c(I)cn2[C@@H]1O[C@H](CO)[C@@H](O)[C@H]1O [3.1o, 6-Ethyl-7-iodo-9-β-D-ribofuranosyl-7-deazapurine] | – | – | 0 | 0 | 0 | 0 | 0 | 0 | – | – | –
19 | C=Cc1cn([C@@H]2O[C@H](CO)[C@@H](O)[C@H]2O)c2ncnc(CC)c12 [3.1m, 6-Ethyl-7-vinyl-9-β-D-ribofuranosyl-7-deazapurine] | 4 | >4.5 and >7.1 | >4 and >2.3 | 0 | 0 | – | 0 | – | – | – | –
20 | OC[C@H]1O[C@@H](n2ccc3c(C#Cc4cccc(F)c4)ncnc32)[C@H](O)[C@@H]1O [3.1i, 6-((3-Fluorophenyl)ethynyl)-9-β-D-ribofuranosyl-7-deazapurine] | – | 0 | 7.5 and 6.1 | 0 | 0 | 9 and 8 | 0 | 27 and 35 | – | – | –
21 | NC(=O)c1ncn([C@@H]2O[C@H](CO)[C@@H](O)[C@H]2O)n1 [Ribavirin, ribavirin, reference compound] | – | – | – | >110 and 120 | >450 and >420 | – | – | – | – | >400 | >130
